This assay concerns the target T1, CCR5 on CEM.NKR-CCR5 cells (Homo sapiens, UniProt P51681).
T1 construct: host or cells: CEM.NKR-CCR5 (transduced human T cell leukemia line)
The experiment in a line: Competition binding: inhibition of PRO 140-PE binding. The conditions noted are these: based on MFI data; 5 nM PRO 140-PE. As to the method:
Azide was added to block CCR5 internalization during the assay. Cells were washed in PBSA and incubated with 5nM PRO 140-PE for an additional 30 minutes prior to washing and analysis by flow cytometry using a FACSCalibur instrument (Becton Dickinson). The extent of PRO 140-PE binding was measured in terms of both the mean fluorescence intensity (MFI) and the percent of cells gated for positive staining.

Amino acid sequences for entries named in this document (tags omitted).
UniProt P51681, whole entry: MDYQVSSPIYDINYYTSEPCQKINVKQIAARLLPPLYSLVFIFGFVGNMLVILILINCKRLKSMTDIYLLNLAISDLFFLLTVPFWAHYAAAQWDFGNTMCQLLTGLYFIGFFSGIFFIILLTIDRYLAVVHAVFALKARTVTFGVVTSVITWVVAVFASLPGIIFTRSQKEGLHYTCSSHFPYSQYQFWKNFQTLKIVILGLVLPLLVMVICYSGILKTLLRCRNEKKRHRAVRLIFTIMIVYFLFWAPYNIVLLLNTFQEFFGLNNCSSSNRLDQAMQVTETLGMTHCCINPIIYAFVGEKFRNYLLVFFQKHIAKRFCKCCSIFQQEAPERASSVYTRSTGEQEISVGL

Experimental findings from patent publication US20110135634A1, “METHODS OF INHIBITING INFECTION BY DIVERSE SUBTYPES OF DRUG-RESISTANT HIV-1” (priority 2007, published 2011) are described below.

B1: PRO 140: humanized IgG4,κ anti-CCR5 mAb being developed for HIV-1 therapy (antibody, chains of the INN, looked up, V domains shown)
VH: EVQLVESGGGLVKPGGSLRLSCAASGYTFSNYWIGWVRQAPGKGLEWIGDIYPGGNYIRNNEKFKDKTTLSADTSKNTAYLQMNSLKTEDTAVYYCGSSFGSNYVFAWFTYWGQGTLVTVSS
VL: DIVMTQSPLSLPVTPGEPASISCRSSQRLLSSYGHTYLHWYLQKPGQSPQLLIYEVSNRFSGVPDRFSGSGSGTDFTLKISRVEAEDVGVYYCSQSTHVPLTFGQGTKVEIK
The molecule B1 displayed an EC50 of 2.5 nM.

By EC50 is commonly meant the concentration at which the effect is half-maximal.
